Test: Selectivity index, ratio of TC50 for MDCK cells to IC50 for Influenza A virus A/95-359 infected in MDCK cells
Conditions: dog

For `CCOC(=O)C1=C[C@@H](OC(CC)CC)[C@H](NC(C)=O)[C@@H](N)C1` [OSELTAMIVIR], the Selectivity Index was 773.

— ChEMBL document CHEMBL4196144, “Minor Nortriterpenoids from the Twigs and Leaves of Rhododendron latoucheae” (J Nat Prod, 2018)
